In brackets after ≈: the same amount, converted by molar mass.
Key:
Alcaligenes faecalis GA = assay: Antibacterial spectrum (Table I); conditions: serial dilutions in fluid medium, inoculum 10^4 CFU (gramnegative organism)
Dipl. pneumoniae EA = assay: Antibacterial spectrum (Table I); conditions: serial dilutions in fluid medium, inoculum 10^ CFU (grampositive organism)
[1] = tested on: Enterobact. aerogenes HC7A; assay: Antibacterial spectrum (Table I); conditions: serial dilutions in fluid medium, inoculum 10^4 CFU (gramnegative organism)
Escherichia coli HA2 = assay: Antibacterial spectrum (Table I); conditions: serial dilutions in fluid medium, inoculum 10^4 CFU (gramnegative organism)
[2] = tested on: Escherichia coli HA58 (RTEM); assay: Antibacterial spectrum (Table I); conditions: serial dilutions in fluid medium, inoculum 10^4 CFU (gramnegative organism)
[3] = tested on: Haemophilus influenzae IX3; assay: Antibacterial spectrum (Table I); conditions: serial dilutions in fluid medium, inoculum 10^4 CFU (gramnegative organism)
Kleb. pneumoniae HE = assay: Antibacterial spectrum (Table I); conditions: serial dilutions in fluid medium, inoculum 10^4 CFU (gramnegative organism)
[4] = tested on: Neisseria gonorrhoeae DA2; assay: Antibacterial spectrum (Table I); conditions: serial dilutions in fluid medium, inoculum 10^4 CFU (gramnegative organism)
[5] = tested on: Neisseria meningitidis DB; assay: Antibacterial spectrum (Table I); conditions: serial dilutions in fluid medium, inoculum 10^4 CFU (gramnegative organism)
Proteus vulg. HJ = assay: Antibacterial spectrum (Table I); conditions: serial dilutions in fluid medium, inoculum 10^4 CFU (gramnegative organism)
Pseud. aeruginosa BA2 = assay: Antibacterial spectrum (Table I); conditions: serial dilutions in fluid medium, inoculum 10^4 CFU (gramnegative organism)
Salm. typhimurium HL2 = assay: Antibacterial spectrum (Table I); conditions: serial dilutions in fluid medium, inoculum 10^4 CFU (gramnegative organism)
Shigella dystenteriae HR = assay: Antibacterial spectrum (Table I); conditions: serial dilutions in fluid medium, inoculum 10^4 CFU (gramnegative organism)
Staph. aureus CJ9 = assay: Antibacterial spectrum (Table I); conditions: serial dilutions in fluid medium, inoculum 10^ CFU (grampositive organism)
Strep. faecalis EI3 = assay: Antibacterial spectrum (Table I); conditions: serial dilutions in fluid medium, inoculum 10^ CFU (grampositive organism)
Strep. pyogenes EC = assay: Antibacterial spectrum (Table I); conditions: serial dilutions in fluid medium, inoculum 10^ CFU (grampositive organism)
β-lactamases = conditions: literature report; cited from earlier work

SMILES	IC50 (Alcaligenes faecalis GA) [µg/mL]	IC50 (Dipl. pneumoniae EA) [µg/mL]	IC50 [1] [µg/mL]	IC50 (Escherichia coli HA2) [µg/mL]	IC50 [2] [µg/mL]	IC50 [3] [µg/mL]	IC50 (Kleb. pneumoniae HE) [µg/mL]	IC50 [4] [µg/mL]	IC50 [5] [µg/mL]	IC50 (Proteus vulg. HJ) [µg/mL]	IC50 (Pseud. aeruginosa BA2) [µg/mL]	IC50 (Salm. typhimurium HL2) [µg/mL]	IC50 (Shigella dystenteriae HR) [µg/mL]	IC50 (Staph. aureus CJ9) [µg/mL]	IC50 (Strep. faecalis EI3) [µg/mL]	IC50 (Strep. pyogenes EC) [µg/mL]	inhibition of β-lactamases reported in the literature (β-lactamases)
CC1(C)S[C@@H]2[C@H](Cl)C(=O)N2[C@H]1C(=O)O	2.5 (≈ 10.6 µM)	5.0 (≈ 21.2 µM)	63 (≈ 267 µM)	50 (≈ 212 µM)	> 100	20 (≈ 84.9 µM)	63 (≈ 267 µM)	0.20 (≈ 0.849 µM)	0.63 (≈ 2.67 µM)	40 (≈ 170 µM)	> 100	100 (≈ 424 µM)	40 (≈ 170 µM)	40 (≈ 170 µM)	> 100	6.3 (≈ 26.7 µM)	
CC1(C)S[C@@H]2[C@H](Br)C(=O)N2[C@H]1C(=O)O	2.0 (≈ 7.14 µM)	1.6 (≈ 5.71 µM)	63 (≈ 225 µM)	50 (≈ 178 µM)	100 (≈ 357 µM)	32 (≈ 114 µM)	63 (≈ 225 µM)	0.25 (≈ 0.892 µM)	0.79 (≈ 2.82 µM)	40 (≈ 143 µM)	> 100	100 (≈ 357 µM)	50 (≈ 178 µM)	32 (≈ 114 µM)	> 100	6.3 (≈ 22.5 µM)	
CC1(C)S[C@@H]2[C@@H](Br)C(=O)N2[C@H]1C(=O)O																	no effect on these enzymes
CC1(C)S[C@@H]2[C@H](I)C(=O)N2[C@H]1C(=O)O	10 (≈ 30.6 µM)	5.0 (≈ 15.3 µM)	> 100	> 100	> 100	> 100	> 100	0.79 (≈ 2.41 µM)	1.6 (≈ 4.89 µM)	100 (≈ 306 µM)	> 100	> 100	> 100	63 (≈ 193 µM)	> 100	5.0 (≈ 15.3 µM)	

— patent US4594246A, “Pharmaceutically-acceptable amine salts of 6-β-halopenicillanic acids” (Leo Pharmaceutical Products, priority 1979, dated 1986)
